Compound potency records, mixed from different reports. Data source: NIAID ChemDB in PubChem.

All rows: tests in culture; agent: Vaccinia virus; measure: EC50

Lines come from different laboratories, so protocols vary. Blank or dashed fields: not listed here. ECn: concentration that inhibits the pathogen or its effect by n%.

compound,cell line,strain,value
CC(=O)OC1C(OC(C)=O)[C@@H](COS(=O)(=O)NC(C)C)O[C@H]1n1ccc(=O)[nH]c1=O,VERO,-,101 µg/mL
Nc1nc2c(ncn2C[C@@H](CF)OCP(=O)(O)O)c(=O)[nH]1,E6SM,-,>600 µM
COc1ncnc2c1cnn2Cc1cn(CCCCO)nn1,E6SM,-,>400 µg/mL
O=c1[nH]n2c(-c3cn(-c4ccccc4)nc3-c3ccccc3)nnc2s1,HEL,-,>16 µg/mL
CC1(C)[C@@H](CCO)C[C@H]1n1cnc2c(N)nc(N)nc21,E6SM,-,200 µg/mL
CO[C@H]1/C=C/O[C@@]2(C)Oc3c(C)c(O)c4c(O)c(c(/C=N/NC(=O)CN5CCN(c6ccc(C)cc6)CC5)c(O)c4c3C2=O)NC(=O)/C(C)=C\C=C\[C@H](C)[C@H](O)[C@@H](C)[C@@H](O)[C@@H](C)[C@H](OC(C)=O)[C@@H]1C,L929,-,>50 µg/mL
CSc1ncnc2c1cnn2Cc1cnnn1CCCCO,E6SM,-,>400 µg/mL
CCc1ccc(N2CCN(CC(=O)N/N=C/c3c4c(O)c5c(O)c(C)c6c(c5c3O)C(=O)[C@@](C)(O/C=C/[C@H](OC)[C@@H](C)[C@@H](OC(C)=O)[C@H](C)[C@H](O)[C@H](C)[C@@H](O)[C@@H](C)/C=C/C=C(/C)C(=O)N4)O6)CC2)cc1,L929,-,>50 µg/mL
C[C@@H](Cn1cnc2c(=O)[nH]c(N)nc21)OCP(=O)(O)O,E6SM,-,≥600 µM
CCCc1cn([C@H]2C[C@H](O)[C@@H](COP(=O)(O)O)O2)c(=O)[nH]c1=O,PRK,-,>797 µg/mL
Nc1ncnc2c1ncn2[C@H]1[C@H](O)[C@H](F)[C@@H](CO)[C@@H]1O,HEP-2,-,63 µM
CCc1cn([C@H]2C[C@H](O)[C@@H](CO)O2)c(=O)[nH]c1=O,HEP-2,-,16 µg/mL
CO[C@H]1/C=C/O[C@@]2(C)Oc3c(C)c(O)c4c(O)c(c(/C=N/NC(=O)CN5CCN(c6ccc([N+](=O)[O-])cc6)CC5)c(O)c4c3C2=O)NC(=O)/C(C)=C\C=C\[C@H](C)[C@H](O)[C@@H](C)[C@@H](O)[C@@H](C)[C@H](OC(C)=O)[C@@H]1C,L929,-,>50 µg/mL
N#CC1=CSc2nnc(-c3cn(-c4ccccc4)nc3-c3ccccc3)n2N=C1N,HEL,-,>80 µg/mL
CO[C@H]1/C=C/O[C@@]2(C)Oc3c(C)c(O)c4c(O)c(c(/C=N/NC(=O)CN5CCN(c6ccc(Br)cc6)CC5)c(O)c4c3C2=O)NC(=O)/C(C)=C\C=C\[C@H](C)[C@H](O)[C@@H](C)[C@@H](O)[C@@H](C)[C@H](OC(C)=O)[C@@H]1C,L929,-,>50 µg/mL
Nc1ncnc2c1ncn2[C@@H]1C=C(CO)[C@@H](O)[C@H]1O,E6SM,-,0.2 µg/mL
CO[C@H]1/C=C/O[C@@]2(C)Oc3c(C)c(O)c4c(O)c(c(/C=N/NC(=O)CN5CCN(c6ccc(F)cc6)CC5)c(O)c4c3C2=O)NC(=O)/C(C)=C\C=C\[C@H](C)[C@H](O)[C@@H](C)[C@@H](O)[C@@H](C)[C@H](OC(C)=O)[C@@H]1C,L929,-,>50 µg/mL
COC(=O)C(C)(C)NP(=O)(OC[C@H]1O[C@@H](n2cc(/C=C/Br)c(=O)[nH]c2=O)C[C@@H]1O)Oc1ccccc1,E6SM,-,32 µM
CCOC(=O)Sc1nnc(-c2cn(-c3ccccc3)nc2-c2ccccc2)n1N,HEL,-,>16 µg/mL
NCC[C@H](N)C[C@H]1O[C@@H](n2cnc3c(N)ncnc32)[C@H](O)[C@@H]1O,L929,Lederle CA,~700 µM
O=c1[nH]cnc2c1cnn2Cc1cn(CCCCO)nn1,E6SM,-,>400 µg/mL
Nc1ncnc2c1ncn2C[C@H](CO)OCP(=O)(O)O,E6SM,-,36 µM
COc1ccc(N2CCN(CC(=O)N/N=C/c3c4c(O)c5c(O)c(C)c6c(c5c3O)C(=O)[C@@](C)(O/C=C/[C@H](OC)[C@@H](C)[C@@H](OC(C)=O)[C@H](C)[C@H](O)[C@H](C)[C@@H](O)[C@@H](C)/C=C/C=C(/C)C(=O)N4)O6)CC2)cc1,L929,-,>50 µg/mL
Nc1ncnc2c1ncn2C[C@@H](CO)OCP(=O)(O)O,E6SM,-,0.33 µM
Nc1ccn([C@@H]2C=C(CO)[C@@H](O)[C@H]2O)c(=O)n1,PRK,-,0.02 µg/mL
CC1(C)[C@@H](CCO)C[C@H]1n1nnc2c(N)nc(N)nc21,E6SM,-,20 µg/mL
CCOC(=O)C1=CSc2nnc(-c3cn(-c4ccccc4)nc3-c3ccccc3)n2N=C1N,HEL,-,>16 µg/mL
COC(=O)[C@H](C)NP(=O)(OC[C@H]1O[C@@H](n2cc(/C=C/Br)c(=O)[nH]c2=O)C[C@@H]1O)Oc1ccccc1,E6SM,-,9.6 µM
CC1(C)[C@@H](CCO)C[C@H]1n1cnc2c(N)ncnc21,E6SM,-,70 µg/mL
CO[C@H]1/C=C/O[C@@]2(C)Oc3c(C)c(O)c4c(O)c(c(/C=N/NC(=O)CN5CCN(c6ccccc6)CC5)c(O)c4c3C2=O)NC(=O)/C(C)=C\C=C\[C@H](C)[C@H](O)[C@@H](C)[C@@H](O)[C@@H](C)[C@H](OC(C)=O)[C@@H]1C,L929,-,>50 µg/mL
Cn1cc(C(=O)NCc2ccc(Cl)cc2)c(=O)c2cc(CN3CCOCC3)ccc21,HFF,-,76.2 µM

3 of the rows above, restated:

compound	cell line	strain	value
CC1(C)[C@@H](CCO)C[C@H]1n1nnc2c(N)nc(N)nc21	E6SM	-	20 µg/mL
CC(=O)OC1C(OC(C)=O)[C@@H](COS(=O)(=O)NC(C)C)O[C@H]1n1ccc(=O)[nH]c1=O	VERO	-	101 µg/mL
CC1(C)[C@@H](CCO)C[C@H]1n1cnc2c(N)nc(N)nc21	E6SM	-	200 µg/mL